Results of unrelated studies side by side (data: NIAID ChemDB).

All rows: growth or infection tests; species: Mycobacterium tuberculosis

Inhibition is in % at the dose shown (toxicity tests: loss of growth or viability). MIC bound: limit read from a one-dose screen. An empty or dashed field is not shown. MIC50, MIC90 and the like: level of inhibition, or share of isolates inhibited. Neighbouring rows are from separate reports. ECn is the concentration giving n% inhibition of infection, replication or growth.

smiles,mutations,conditions,read-out,read by,cell line,strain,dose,value
O=C(CC1Sc2ccccc2NC1=O)NNc1ccc(Cl)cc1Cl,,,MIC bound,BACTEC,,H37Rv,,>12.5 µg/mL
CO[C@H]1/C=C/O[C@@]2(C)Oc3c(C)c(O)c4c(=O)c(c5oc6cc(N7CCN(CC(C)C)CC7)cc(=O)c6nc5c4c3=C2O)NC(=O)/C(C)=C\C=C\[C@H](C)[C@H](O)[C@@H](C)[C@@H](O)[C@@H](C)[C@H](OC(C)=O)[C@@H]1C,,inside macrophages,inhibition,,,Kurono,10 µg/mL,96.9%
C[C@H](NCCNCCC(c1ccccc1)c1ccccc1)C1CCCCC1,,,MIC,,,,,6.25 µM
COc1ccc(CCc2cc(OC)c3ccccc3n2)cc1OC,,,MIC,,,MT9,,155 µg/mL
CCNC(=S)N=Nc1c(O)n(C)c2ccc(OC(F)(F)F)cc12,,,EC90,broth dilution / resazurin,,H37Rv,,>100 µg/mL
CCOc1ccc2c(N/N=C/c3c(OC)ccc4ccccc34)ccnc2c1,,,MIC,,VERO,H37Rv,,3.13 µg/mL
NNC(=O)c1ccncc1,,,MIC,resazurin,,H37Rv,,0.03 µg/mL
O=C(Nc1ccc(NC(=O)Nc2cc(C(=O)Nc3ccc(C4=NCCN4)cc3)ccc2C(=O)Nc2ccc(C3=NCCN3)cc2)cc1)Nc1cc(C(=O)Nc2ccc(C3=NCCN3)cc2)ccc1C(=O)Nc1ccc(C2=NCCN2)cc1,,,MIC bound,BACTEC,,H37Rv,,>12.5 µg/mL
C[C@H]1COc2c(N3CCN(C)CC3)c(F)cc3c(=O)c(C(=O)O)cn1c23,,,MIC,,,ATCC 35830,,0.25 µg/mL
COc1ccc2[nH]c(=O)c(N=Nc3ccccc3)c(O)c2c1,,,inhibition,resazurin,,H37Rv,6.25 µg/mL,0%
CCO/C=N/Nc1ccc2nnc(Cl)n2n1,,,MIC bound,BACTEC,,H37Rv,,>12.5 µg/mL
NC(=O)c1cnccn1,,,MIC,,,CDC-BP98 niacin-positive,,>2048 µg/mL
c1ccc(CCCNCCNCCN2CCOCC2)cc1,,,MIC,,,,,50 µM
CCCCN(CCCC)N(C)C(=O)COc1cc2c(O)c3c(O)c(C)c4c(c13)C(=O)[C@@](C)(O/C=C/[C@H](OC)[C@@H](C)[C@@H](OC(C)=O)[C@H](C)[C@H](O)[C@H](C)[C@@H](O)[C@@H](C)/C=C/C=C(/C)C(=O)N2)O4,,,MIC,,,H37Rv,,0.09 µg/mL
O=C(NNCc1ccccc1)c1ccncc1,,,MIC,,,Rifampicin-resistant,,0.39 µg/mL
O=c1[nH]c2c(Cl)ccc(Cl)c2c(O)c1N=Nc1ccc(F)cc1,,,MIC,resazurin,,H37Rv,,<6.25 µg/mL
CCCCCN(C(=O)COc1cc2c(O)c3c(O)c(C)c4c(c13)C(=O)[C@@](C)(O/C=C/[C@H](OC)[C@@H](C)[C@@H](OC(C)=O)[C@H](C)[C@H](O)[C@H](C)[C@@H](O)[C@@H](C)/C=C/C=C(/C)C(=O)N2)O4)N(C)C,,,MIC,,,H37Rv,,0.18 µg/mL
CO[C@H]1/C=C/O[C@@]2(C)Oc3c(C)c(O)c4c(O)c(c5c(c4c3C2=O)NC2(CCN(CC(C)C)CC2)N=5)=NC(=O)/C(C)=C\C=C\[C@H](C)[C@H](O)[C@@H](C)[C@@H](O)[C@@H](C)[C@H](OC(C)=O)[C@@H]1C,,,MIC,,,CSU12,,≤0.125 µg/mL
Fc1ccc(-n2c(=S)oc3ccc(F)cc3c2=S)cc1,,14 d,MIC,,,My 331/88,,1 µM
COc1cc2c3c(c1OC)-c1cc4c(cc1CC3N(C=O)CC2)OCO4,,,MIC,resazurin,,H37RvSr,,>50 µg/mL
COc1ccc(N=Nc2c(O)c3cccc([N+](=O)[O-])c3[nH]c2=O)c(C)c1,,,MIC,resazurin,,H37Rv,,>6.25 µg/mL
CN1C(=O)C2(C)SSC1(C)C(=O)N2C,,,MIC,BACTEC,VERO,H37Rv,,>12.5 µg/mL
CC[C@H]1OC(=O)[C@H](C)[C@@H](O[C@H]2C[C@@](C)(OC)[C@@H](O)[C@H](C)O2)[C@H](C)[C@@H](O[C@@H]2O[C@H](C)C[C@H](N(C)C)[C@H]2O)[C@](C)(O)C[C@@H](C)C(=O)[C@H](C)[C@@H](O)[C@]1(C)O,,,MIC,,,ATCC 35826,,>8 µg/mL
CC(=O)NC1=CC(=O)C=CC1=Nc1ccc(N(C)C)cc1,,,MIC bound,BACTEC,,H37Rv,,≤12.5 µg/mL
CCCN(C(=O)COc1cc2c(O)c3c(O)c(C)c4c(c13)C(=O)[C@@](C)(O/C=C/[C@H](OC)[C@@H](C)[C@@H](OC(C)=O)[C@H](C)[C@H](O)[C@H](C)[C@@H](O)[C@@H](C)/C=C/C=C(/C)C(=O)N2)O4)N1CCOCC1,,,MIC,,,H37Rv,,0.37 µg/mL
C=C1OC(=O)C(=O)N1CC(=O)O,,,inhibition,BACTEC,,H37Rv,12.5 µg/mL,5%
CCN(CC)c1ccc(/C=N/Nc2ccnc3cc(Cl)ccc23)cc1,,,inhibition,,VERO,H37Rv,12.5 µg/mL,100%
N#C[B][n+]1ccc(C(=O)NNCc2ccccc2)cc1,,inside macrophages,EC90,colony count,Macrophages,Erdman,,0.116 µg/mL
COc1ccc(OC)c2c(Cl)cc(N)nc12,,,inhibition,BACTEC,,H37Rv,12.5 µg/mL,78%
COc1ccc(/C=N/Nc2ccnc3ccc(C4CCCCC4)cc23)c2ccccc12,,,MIC,,VERO,H37Rv,,3.13 µg/mL
CCCCC(CC)CN1CN(CC(CC)CCCC)CC(C)(NCCN[C@H]2C[C@H]3C[C@@H]([C@@H]2C)C3(C)C)C1,,,MIC,,,,,50 µM
CC[C@H]1OC(=O)[C@H](C)[C@@H](O[C@H]2C[C@@](C)(OC)[C@@H](O)[C@H](C)O2)[C@H](C)[C@@H](O[C@@H]2O[C@H](C)C[C@H](N(C)C)[C@H]2O)[C@](C)(O)C[C@@H](C)CN(C)[C@H](C)[C@@H](O)[C@]1(C)O,,,MIC,,,ATCC 35826,,>8 µg/mL
COc1ccc2nc(-c3ccccc3)cc(N/N=C/c3ccc(NC(C)=O)cc3)c2c1,,,MIC,,VERO,H37Rv,,12.5 µg/mL
O=c1oc2ccc(Cl)cc2c(=S)n1-c1cccc(F)c1,,14 d,MIC,,,My 331/88,,2 µM
C/C(=N\NC(=O)c1ccncc1)c1ccc(F)cc1,,,MIC,,,Ethambutol-resistant,,0.1 µg/mL
CCOC(=O)C1CSC(c2c(COP(=O)([O-])[O-])cnc(C)c2[O-])N1.[Na+].[Na+].[Na+],,,inhibition,BACTEC,,H37Rv,12.5 µg/mL,0%
C[C@H]1C[C@H](N)CN1c1cc2c(cc1F)c(=O)c(C(=O)O)cn2-c1ccc(F)cc1F,,,MIC,,,H37Rv,,2 µg/mL
Cn1cc(C(=O)O)c(=O)c2cc([N+](=O)[O-])c3cccnc3c21,,,MIC90,,,BCG,,1.4 µM
COc1cccc2c1cc1c3c(cc4c(c32)OCO4)C(=O)N1,,,MIC,resazurin,,H37Rv,,12.5 µg/mL
CCCCCc1cc(OC)c2ccccc2n1,,,MIC,,,MT2,,12.5 µg/mL
CCOC(=O)c1cn(C)c2c(cc([N+](=O)[O-])c3cccnc32)c1=O,gyrA mutation A90V,,MIC90,,,H37Rv,,>50 µM
O=c1[nH]c2cc(Cl)ccc2c(O)c1N=Nc1ccc([N+](=O)[O-])cc1,,,inhibition,resazurin,,H37Rv,6.25 µg/mL,1%
CCCCCCCCCCCNCCNCc1ccc(OC)cc1OC,,,MIC,,,,,25 µM
O=c1[nH]c2cc([N+](=O)[O-])ccc2c(O)c1N=Nc1cccc(Cl)c1Cl,,,MIC,resazurin,,H37Rv,,>6.25 µg/mL
CC(C)(C)C1=CC(=CC=C2C=CN(CCCCCCCCCCCO)C=C2)C=C(C(C)(C)C)C1=O,,,inhibition,BACTEC,,H37Rv,12.5 µg/mL,99%
COc1ccc2oc(=S)n(-c3ccc(Cl)cc3)c(=S)c2c1,,21 d,MIC,,,My 331/88,,16 µM
C/C(=N\NC(=O)c1ccncc1)c1ccccc1F,,,MIC,,,Isoniazid-resistant,,>6.25 µg/mL
COc1ccc2oc(=S)n(-c3ccc(C(F)(F)F)cc3)c(=S)c2c1,,21 d,MIC,,,My 331/88,,32 µM
Cn1c(O)c(N=NC(=S)NC2CCCCC2)c2cc(OC(F)(F)F)ccc21,,,EC90,broth dilution / resazurin,,H37Rv,,>100 µg/mL
O=c1c2nccnc2nc2n1CCCCC2,,,inhibition,resazurin,,H37Rv,6.25 µg/mL,18%
Cn1c(O)c(N=NC(=S)NCc2ccccc2)c2cc(OC(F)(F)F)ccc21,,,EC90,broth dilution / resazurin,,H37Rv,,>100 µg/mL
O=[N+]([O-])c1ccccc1S(=O)(=O)c1ccccc1,,,MIC,BACTEC,,H37Rv,,>128 µg/mL
O=C(O)c1cn(C2CC2)c2c(F)c(N3CCSCC3)c(F)cc2c1=O,,,MIC,,,Erdman,,0.5 µg/mL
Cc1cccc(CNCCNC[C@]2(C)CCC[C@]3(C)c4ccc(C(C)C)cc4CC[C@@H]23)c1,,,MIC,,,,,12.5 µM
O=C1NC2=NNC(S)N2NC12c1ccccc1-c1ccccc12,,,inhibition,BACTEC,,H37Rv,12.5 µg/mL,54%
C=CCNC(=S)N=Nc1c(O)n(C)c2ccc(OC(F)(F)F)cc12,,,EC50,broth dilution / resazurin,,H37Rv,,2.731 µg/mL
CC1CN(c2c(F)cc3c(=O)c(C(=O)O)cn(C4CC4)c3c2F)CCN1,,,MIC,,,CSU12,,≤0.125 µg/mL
CO[C@H]1/C=C/O[C@@]2(C)Oc3c(C)c(O)c4c(O)c(c5c(c4c3C2=O)NC2(CCN(CC(C)C)CC2)N=5)=NC(=O)/C(C)=C\C=C\[C@H](C)[C@H](O)[C@@H](C)[C@@H](O)[C@@H](C)[C@H](OC(C)=O)[C@@H]1C,,,MIC,,,2242 (rifampicin-susceptible),,0.031 µg/mL
Cn1c(O)c(N=NC(=S)Nc2ccc(Cl)cc2)c2cc(OC(F)(F)F)ccc21,,,EC50,broth dilution / resazurin,,H37Rv,,1.706 µg/mL
CO[C@H]1/C=C/O[C@@]2(C)Oc3c(C)c(O)c4c(O)c(cc(OCC(=O)N5C(C)COCC5C)c4c3C2=O)NC(=O)/C(C)=C\C=C\[C@H](C)[C@H](O)[C@@H](C)[C@@H](O)[C@@H](C)[C@H](OC(C)=O)[C@@H]1C,,,MIC,,,H37Rv,,0.09 µg/mL
NNC(=O)c1ccncc1,,,MIC,,,Isolate 20,,<2 µg/mL
CCCCC(CC)CN1CN(CC(CC)CCCC)CC(C)(NCCN[C@@H]2C[C@@H]3C[C@H]([C@H]2C)C3(C)C)C1,,,MIC,,,,,50 µM
COc1ccc2oc(=O)n(-c3ccc(Cl)cc3)c(=S)c2c1,,21 d,MIC,,,My 331/88,,16 µM
C[C@@H](O)[C@H](NC(=O)OCc1ccccc1)C(=O)N[C@@H](CO)C(=O)NN,,,MIC,BACTEC,,H37Rv,,≥12.8 µg/mL
O=C(N/N=C/c1ccccc1F)c1ccncc1,,,MIC,,,Ethambutol-resistant,,0.05 µg/mL
CC[C@@H](CO)NCCN[C@@H](CC)CO,,,MIC,,,CSU22,,8 µg/mL
CC(C)=CCCC(C)c1c2[nH]c3ccccc3sc-2c(C)c(=O)c1=O,,,MIC bound,BACTEC,,H37Rv,,>12.5 µg/mL
Fc1ccc(-n2c(=S)oc3ccc(Cl)cc3c2=S)cc1,,21 d,MIC,,,My 331/88,,2 µM
CC(O)c1nc(C(N)=O)cs1,,,inhibition,BACTEC,,H37Rv,12.5 µg/mL,-3%
Cc1ccc(-n2c(=S)oc3ccc(F)cc3c2=S)cc1,,14 d,MIC,,,My 331/88,,1 µM
CC(C)=CCC1=C(O)c2ccccc2C(=O)C1=O,,,MIC,BACTEC,,H37Rv,,64 µg/mL
COc1ccc(OC)c(CCNCCNCc2ccc(C(F)(F)F)cc2)c1,,,MIC,,,,,12.5 µM
CC(=O)NNc1nc(C)c(C(=O)NNC(=O)C(=O)Nc2ccc([N+](=O)[O-])cc2[N+](=O)[O-])s1,,,MIC bound,resazurin,,H37Rv,,>6.25 µg/mL
COc1ccc(NC(=S)N=Nc2c(O)[nH]c3ccc(OC(F)(F)F)cc23)cc1,,,EC50,broth dilution / resazurin,,H37Rv,,3.339 µg/mL
Nc1cc(=O)n(-c2ccccc2)[nH]1,,,inhibition,resazurin,,H37Rv,6.25 µg/mL,-13%
O=c1[nH]c2cc(Cl)ccc2c(O)c1N=Nc1ccccc1,,,MIC,resazurin,,H37Rv,,<6.25 µg/mL
C[N+](C)=c1ccc2nc3c(ccc4ccccc43)oc-2c1.[Cl-],,,MIC bound,BACTEC,,H37Rv,,≤12.5 µg/mL
CC(NNC(=O)c1ccncc1)c1ccc(Cl)c(Cl)c1,,,MIC,,,Thiacetazone-resistant,,>50 µg/mL

Repeating the final 11 entries:

smiles	mutations	conditions	read-out	read by	cell line	strain	dose	value
Fc1ccc(-n2c(=S)oc3ccc(Cl)cc3c2=S)cc1		21 d	MIC			My 331/88		2 µM
CC(O)c1nc(C(N)=O)cs1			inhibition	BACTEC		H37Rv	12.5 µg/mL	-3%
Cc1ccc(-n2c(=S)oc3ccc(F)cc3c2=S)cc1		14 d	MIC			My 331/88		1 µM
CC(C)=CCC1=C(O)c2ccccc2C(=O)C1=O			MIC	BACTEC		H37Rv		64 µg/mL
COc1ccc(OC)c(CCNCCNCc2ccc(C(F)(F)F)cc2)c1			MIC					12.5 µM
CC(=O)NNc1nc(C)c(C(=O)NNC(=O)C(=O)Nc2ccc([N+](=O)[O-])cc2[N+](=O)[O-])s1			MIC bound	resazurin		H37Rv		>6.25 µg/mL
COc1ccc(NC(=S)N=Nc2c(O)[nH]c3ccc(OC(F)(F)F)cc23)cc1			EC50	broth dilution / resazurin		H37Rv		3.339 µg/mL
Nc1cc(=O)n(-c2ccccc2)[nH]1			inhibition	resazurin		H37Rv	6.25 µg/mL	-13%
O=c1[nH]c2cc(Cl)ccc2c(O)c1N=Nc1ccccc1			MIC	resazurin		H37Rv		<6.25 µg/mL
C[N+](C)=c1ccc2nc3c(ccc4ccccc43)oc-2c1.[Cl-]			MIC bound	BACTEC		H37Rv		≤12.5 µg/mL
CC(NNC(=O)c1ccncc1)c1ccc(Cl)c(Cl)c1			MIC			Thiacetazone-resistant		>50 µg/mL